Compound potency records, mixed from different reports. Data source: NIAID ChemDB in PubChem.

All rows: host cell toxicity; cells: VERO; endpoint: CC50

CCn is the concentration with n% toxicity to the cells. Blank or dashed fields: not listed here. Conditions beyond the fields shown may differ between rows.

compound	method	result
O=C(Cc1nn(Cc2ccc(Br)cc2F)c(=O)c2ccccc12)N1CCN(Cc2ccccc2)CC1	MTT	114 µM
Oc1c(CN2CCCC2)cc(Nc2cc(/C=C/c3ccc(Cl)cc3)nc(/C=C/c3ccc(Cl)cc3)n2)cc1CN1CCCC1	-	0.62 µg/mL
O=C1/C(=C/c2ccco2)CNC/C1=C\c1ccco1	MTT	352 µg/mL
CSC(=S)N/N=C(/C)c1cccs1	-	3.4 µg/mL
CCCCCCCCc1cc2cn(CC=C(CO)CO)c(=O)nc2o1	-	78.9 µM
c1ccc(-c2csc(Nc3ccccn3)n2)cc1	luminescence	90 µM
C[C@]1(CCP(=O)(O)O)CO[C@@H](n2cnc3c(=O)[nH]c(N)nc32)C1	-	>100 µM
O=C(Nc1ccc(C2=NCCN2)cc1)c1ccc(C(=O)Nc2ccc(C3=NCCN3)cc2)c(Br)c1	-	>100 µg/mL
Cc1ccc(NC(=O)Cc2nn(Cc3ccc(Br)cc3F)c(=O)c3ccccc23)c(C)c1	MTT	>126 µM
COc1cc(C=O)cc2c1[nH]c1ccccc12	-	>128 µM
OCCOCCN1CCN(CCCN2c3ccccc3Sc3ccc(C(F)(F)F)cc32)CC1	-	20.93 µg/mL
COc1ccc2c3c([nH]c2c1)C(C)=NCC3	MTT	17.64 µg/mL
Brc1ccc2[nH]c3ccc(Br)cc3c2c1	-	>128 µM
CC(C)(C)C1=NC(=S)SC2=NC(=O)C3(NN21)c1ccccc1-c1ccccc13	-	>10 µg/mL
C[C@]1(/C=C/P(=O)(O)O)CO[C@@H](n2cnc3c(N)ncnc32)C1	-	>100 µM
Cc1cccc2c1OP(=O)(OCC(CO)CCn1cc(C)c(=O)[nH]c1=O)OC2	-	>350 µM
Nc1nc2c(ncn2[C@@H]2OC[C@@](/C=C/P(=O)(O)O)(CO)[C@@H]2F)c(=O)[nH]1	MTT	>100 µM
CN1CCc2cc3c(cc2C(=O)Cc2ccc4c(c2C1)OCO4)OCO3	sulforhodamine	>3.5 µg/mL
Cc1[nH]c2ccccc2c1/C=N/N(C)c1ccccc1	-	5.96 µg/mL
CCCCCc1ccc(C#Cc2cn(COCCO)c(=O)[nH]c2=O)cc1	-	7.9 µM
O=C1Nc2ccccc2C(c2ccccc2)=NC1NS(=O)(=O)c1ccccc1Br	-	6 µM
CCN(CC)CCNc1ccc(CO)c2sc3ccccc3c(=O)c12	-	<4.12 µg/mL
O=S(=O)(O)c1ccc(-c2c3nc(c(-c4ccc(S(=O)(=O)O)cc4)c4ccc([n-]4)c(-c4ccncc4)c4ccc([n-]4)c(-c4ccc(S(=O)(=O)O)cc4)c4nc2C=C4)C=C3)cc1.[Na+]	-	0.4 µM
CCCCCCCCc1cc2cn(C/C=C/C(O)CO)c(=O)nc2o1	-	14.9 µM
CC1=C(CCC(=O)O)c2cc3nc(cc4[nH]c(cc5[nH]c(cc1n2)c(C)c5C(C)O)c(C)c4C(C)O)C(C)=C3CCC(=O)O	-	100 µM
c1ccc(-c2csc(Nc3ccncc3)n2)nc1	luminescence	>100 µM
CN(C)c1ccc2nc3ccc(N)cc3[n+](-c3ccccc3)c2c1.[Cl-]	-	19.8 µg/mL
C[C@@H]1CN(CCn2c3ccccc3c3ccccc32)C[C@H](C)N1	-	44 µM
Cc1cc2c(C(C)C)c(O)c(O)c(C=NCCS(=O)(=O)O)c2c(O)c1-c1c(C)cc2c(C(C)C)c(O)c(O)c(C=NCCS(=O)(=O)O)c2c1O	-	37.5 µM
Cc1[nH]c2ccccc2c1/C=N/Nc1ccccc1	-	>10 µg/mL
Oc1ccc(-c2c3nc(c(-c4ccc(O)cc4)c4ccc([nH]4)c(-c4ccc(O)cc4)c4nc(c(-c5ccc(O)cc5)c5ccc2[nH]5)C=C4)C=C3)cc1	-	3.7 µM
c1ccc(Nc2nc(-c3ccccn3)cs2)cc1	luminescence	16 µM
NC(=S)c1cn([C@H]2C[C@H](O)[C@@H](CO)O2)c2ncnc(N)c12	-	4 µM
NC(=O)c1cn(-c2ccc(F)cc2)c2cc(-c3cc[n+]([O-])cc3)ccc2c1=O	-	>12.5 µg/mL
O=C(Cc1nn(Cc2ccc(Br)cc2F)c(=O)c2ccccc12)Nc1ccc(Cl)cc1	MTT	>125 µM
N#CCc1nc2c(s1)C(=O)c1ccccc1C2=O	-	6.3 µg/mL
CCCCCCCC1=C(C)C(=O)c2[nH]c3ccccc3c2C1=O	-	>128 µM
CCn1cc(C(=O)NOC)c(=O)c2ccc(-c3ccncc3)cc21	-	>25 µg/mL
O=C(O)P(=O)(O)O	-	>100 µM
c1ccc(Nc2nc(-c3ccccn3)cs2)nc1	luminescence	0.2 µM
Cc1cccc2c1OP(=O)(OC[C@H]1O[C@@H](n3cc(/C=C/Br)c(=O)[nH]c3=O)C[C@@H]1OC(=O)CN)OC2	-	38.2 µg/mL
O=C(O)Cc1ccc(O)c(O)c1	-	261 µg/mL
O=C(O)c1cccc2nc3ccccc3nc12	-	>5 µg/mL
CC(C)(C)OC(=O)N1[C@H]2CC[C@@H]1C(Nc1ncnc(Cl)c1N)C2	MTS	>147 µM
O=c1c2ccccc2nc(-c2ccccc2)n1-c1nnc(C(F)(F)F)s1	-	1.16 µg/mL
N/C(=N/O)c1cn([C@H]2C[C@H](O)[C@@H](CO)O2)c2ncnc(N)c12	-	70 µM
CCn1cc(C(=O)NO)c(=O)c2ccc(-c3ccncc3)cc21	-	>25 µg/mL
Clc1ccc(N=C2/C(=C/c3ccco3)CNC/C2=C\c2ccco2)cc1	MTT	316 µg/mL
N=C(N)c1cn([C@@H]2O[C@H](CO)[C@@H](O)[C@@H]2O)c2ncnc(N)c12	-	>100 µM
CO[C@H]1/C=C/O[C@@]2(C)Oc3c(C)c(O)c4c(c3C2=O)C(=O)C=C(NC(=O)/C(C)=C\C=C\[C@H](C)[C@H](OC=O)[C@@H](C)[C@@H](O)[C@@H](C)[C@H](OC(C)=O)[C@@H]1C)C4=O	-	4.02 µg/mL
N=C(N)c1cn([C@H]2C[C@H](O)[C@@H](CO)O2)c2ncnc(N)c12	-	11 µM
COc1c2c(cc3c1-c1cc4c(CO)c5c(cc4c[n+]1CC3)OCO5)OCO2	sulforhodamine	>3.79 µg/mL
N=c1c2c(ncn1N)Oc1c(c(-c3ccccc3)nn1-c1ccccc1)C2c1ccc(Cl)cc1	-	1.86 µg/mL
Nc1ncnc2c1ncn2[C@@H]1OC[C@@](/C=C/P(=O)(O)O)(CO)[C@@H]1F	MTT	>100 µM
N#Cc1cccc(C2=N[C@H](C(=O)OCc3ccccc3)CO2)c1	MTS / absorbance	121 µM
CCN(CC)CCNc1cc2c(c3c(=O)c4ccccc4sc13)CCCC2	-	4.2 µg/mL
Cc1cccc2c1OP(=O)(OC[C@H]1O[C@@H](n3cc(/C=C/Br)c(=O)[nH]c3=O)C[C@@H]1OC(=O)[C@H](N)C(C)C)OC2	-	123 µg/mL
N=C1N(/N=C/c2ccccn2)C(=Nc2ccccc2)C(=S)N1c1ccccc1	-	9 µg/mL
Cc1cccc2c1OP(=O)(OCC(CO)CCn1cnc3c(=O)[nH]c(N)nc31)OC2	-	>328 µM
CS(=O)(=O)NC1N=C(c2ccccc2)c2cc(Cl)ccc2NC1=O	-	5 µM
COc1cccc(N=C2/C(=C/c3ccco3)CNC/C2=C\c2ccco2)c1OC	MTT	182 µg/mL
CC(C)(C)OC(=O)N1C[C@H]2C[C@@H]1CC2n1cnc2c(Cl)ncnc21	MTS	50 µM
CC(=O)Oc1c(OC(C)=O)c(C#N)c2c(OC(C)=O)c(-c3c(C)cc4c(C(C)C)c(OC(C)=O)c(OC(C)=O)c(C#N)c4c3OC(C)=O)c(C)cc2c1C(C)C	-	2.7 µM
CCn1cc(C(N)=O)c(=O)c2ccc(N3CCN(C)CC3)cc21	-	>50 µg/mL
Oc1ccccc1O	-	14.5 µg/mL
CCCCCn1cc(C(N)=O)c(=O)c2ccc(-c3ccncc3)cc21	-	>6.25 µg/mL
O=C(NC(=O)C1N=C(c2ccccc2)c2ccccc2NC1=O)c1csc2ccccc12	-	5 µM
Cc1c2cnccc2c(C)c2c1c1ccccc1n2CCNCc1ccccc1	-	0.32 µg/mL
O=S(=O)(OC1/C(=C/c2ccco2)CNC/C1=C\c1ccco1)c1ccccc1	MTT	84 µg/mL
COc1cc(C(=O)O)cc2c1[nH]c1ccccc12	-	>128 µM
COc1cc(O)c2c(=O)cc(-c3ccc(OC)c(-c4c(O)cc(O)c5c(=O)cc(-c6ccc(O)cc6)oc45)c3)oc2c1	-	11.5 µg/mL
S=C(S)N1CCCCCC1	-	7.7 µg/mL
Cc1cc2c(C(C)C)c(O)c(O)c(C=N)c2c(O)c1-c1c(C)cc2c(C(C)C)c(O)c(O)c(C=N)c2c1O	-	6.6 µM
O=c1[nH]c(=O)n([C@H]2C[C@H](O)[C@@H](COP3(=O)OCc4ccccc4O3)O2)cc1/C=C/Br	-	>128 µg/mL
Cc1c(-c2c(C)c(=O)c3c(C(C)C)c(=O)c(=O)c(C=O)c-3c2=O)c(O)c2c(C=O)c(O)c(O)c(C(C)C)c2c1O	-	0.87 µM
CCCN1CCN(c2ccc([N+](=O)[O-])c3no[n+]([O-])c23)CC1	-	0.07 µg/mL
COC1=C(C)C(C)(O)c2[nH]c3ccccc3c2C1=O	-	>128 µM
O=C(NC(=O)N1CCCCC1)C1N=C(c2ccccc2)c2ccccc2NC1=O	-	2 µM
O=C(Nc1nc(-c2ccccn2)cs1)c1cc([N+](=O)[O-])cc([N+](=O)[O-])c1	luminescence	54 µM
CC(C)CCCC(C)C1CCC2C3CCC4CC(NC(=O)CNCCCSC(C)C)CCC4(C)C3CCC12C	-	>10 µg/mL
CCCCCC#Cc1cn(COCCO)c(=O)[nH]c1=O	-	39.5 µM
Cc1c(Cl)cccc1NC(=O)Cc1nn(Cc2ccc(Br)cc2F)c(=O)c2ccccc12	MTT	>121 µM
CN(C)c1c2ccccc2nc2oc3ccccc3c12	MTT	>30 µg/mL
Clc1ncnc2c1ncn2C1C[C@@H]2C[NH2+][C@H]1C2.O=C([O-])C(F)(F)F	MTS	17 µM
NC(=O)c1cn(CCO)c2cc(-c3ccncc3)ccc2c1=O	-	>50 µg/mL
c1ccc(-c2ccc(-c3ccc(C4=NCCN4)cc3)o2)cc1	-	1.5 µg/mL
O=c1[nH]c(=O)n([C@H]2C[C@H](O)[C@@H](COP3(=O)OCc4cc(-c5ccccc5)ccc4O3)O2)cc1/C=C/Br	-	>128 µg/mL
Clc1ncnc2c1ncn2C1C[C@H]2[NH2+][C@@H]1c1ccccc12.O=C([O-])C(F)(F)F	MTS	>64 µM
CCOc1c2ccccc2nc2oc3ccccc3c12	MTT	10.34 µg/mL
Cc1cn(CCC(CO)COP2(=O)OCc3ccccc3O2)c(=O)[nH]c1=O	-	>364 µM

10 of the rows above, restated:

compound	method	result
N#CCc1nc2c(s1)C(=O)c1ccccc1C2=O	-	6.3 µg/mL
NC(=O)c1cn(-c2ccc(F)cc2)c2cc(-c3cc[n+]([O-])cc3)ccc2c1=O	-	>12.5 µg/mL
CCN(CC)CCNc1cc2c(c3c(=O)c4ccccc4sc13)CCCC2	-	4.2 µg/mL
CCCCCCCCc1cc2cn(CC=C(CO)CO)c(=O)nc2o1	-	78.9 µM
CCCCCCCC1=C(C)C(=O)c2[nH]c3ccccc3c2C1=O	-	>128 µM
Cc1cccc2c1OP(=O)(OCC(CO)CCn1cnc3c(=O)[nH]c(N)nc31)OC2	-	>328 µM
CCn1cc(C(=O)NOC)c(=O)c2ccc(-c3ccncc3)cc21	-	>25 µg/mL
Cc1cc2c(C(C)C)c(O)c(O)c(C=N)c2c(O)c1-c1c(C)cc2c(C(C)C)c(O)c(O)c(C=N)c2c1O	-	6.6 µM
OCCOCCN1CCN(CCCN2c3ccccc3Sc3ccc(C(F)(F)F)cc32)CC1	-	20.93 µg/mL
Oc1ccccc1O	-	14.5 µg/mL